{"source": "paper PMC6272715", "about": "“Discovery of Novel Small Molecule Anti-HCV Agents via the CypA Inhibitory Mechanism Using O-Acylation-Directed Lead Optimization” (Molecules, 2015)", "system": "JFH1-2a virus (wild type)", "assay": "HCV virus assay, JFH1-2a wild type, Huh 7.5.1 cells", "conditions": "JFH1-2a virus assay EC50 ratio"}
{"smiles": "CCCCCCCC(=O)Oc1cccc(O)c1C(=O)NC(=O)NC1c2ccccc2-c2ccccc21", "note": "[Compound 25, 1-(2-Hydroxy-6-n-Octanoyloxybenzoyl)-3-(9H-fluoren-9-yl)-urea]", "values": [{"measurement": "fold more potent than 1 in virus assay", "result": 3.5, "unit": "fold"}, {"measurement": "fold more potent than CsA in virus assay", "result": 2.1, "unit": "fold"}]}
